A mixed list of measured activities; the numbers were collected in NIAID ChemDB.

Inhibition is in % at the dose shown (toxicity tests: loss of growth or viability). An empty or dashed field is not shown. MIC50, MIC90 and the like: level of inhibition, or share of isolates inhibited. Conditions beyond the fields shown may differ between rows. ECn is the concentration giving n% inhibition of infection, replication or growth. ICn: concentration for n% inhibition.

smiles | kind | target | endpoint | read by | species | strain or isolate | dose | cell line | value
O=[N+]([O-])c1ccc(C=Nc2ccccc2O)cc1 | culture |  | MIC | broth dilution | Cryptococcus neoformans | LMM 820 |  |  | 16 µg/mL
Nc1cccc(S(=O)(=O)O)c1 | culture |  | inhibition | cytopathic effect | Herpes simplex virus |  | 10 µg/mL | Human amnion AV3 cells | 17%
CSc1ccc(-c2cncc(N3CCN(c4ccc(C(F)(F)F)cc4)CC3)n2)cc1 | target | UL97 kinase | IC50 |  | Cytomegalovirus |  |  |  | <10 µM
Cc1nc(NCCCCNc2ccnc3cc(Cl)ccc23)nc(-c2ccccc2)c1C(=O)OC(C)C | culture |  | MIC99 |  | Cryptococcus gattii | 547/OTTI-97-PI-10 |  |  | 16 µg/mL
Fc1ccc(N2CCCCC2)c(NC(=S)c2ccncc2)c1 | host protein | GRK7 | inhibition | kinase activity |  |  | 10 µM |  | -1%
CCC(CC)O[C@@H]1C=C(C(=O)O)C[C@H](N)[C@H]1NC(C)=O | culture |  | EC50 |  | Influenza A virus | Influenza A/Virginia/2/88R (H3N2) |  | MDCK | <0.01 µM
Nc1ccc(S(=O)(=O)O)cc1 | culture |  | inhibition | cytopathic effect | Adenovirus | TYPE 3 | 5 µg/mL | Human embryonic lung cells | 0%
Cc1ccc(N2CCN(c3cncc(-c4ccc(F)c(Cl)c4)n3)CC2)c(C)c1 | target | UL97 kinase | IC50 |  | Cytomegalovirus |  |  |  | <100 µM
CCOC(=O)c1ccc(OCCC2CCN(c3ccc(C)nn3)CC2)cc1 | culture |  | EC50 | neutral red | Rhinovirus | 6669-CV39 (ICAM-1 receptor group 61) |  | KB | 2.846 µM
Oc1ccccc1N=Cc1cccc(O)c1O | culture |  | MIC99 |  | Cryptococcus gattii | ATCC 24065 |  |  | 4 µg/mL
COc1ccc2cc(-c3cncc(N4CCN(c5ccc(C(C)=O)cc5)CC4)n3)ccc2c1 | target | UL97 kinase | inhibition |  | Cytomegalovirus |  | 1 µM |  | <50%
NCCS(=O)(=O)O | culture |  | inhibition | cytopathic effect | Adenovirus | TYPE 3 | 10 µg/mL | Human embryonic lung cells | 10%
Oc1ccc(O)c(C=Nc2ccccc2O)c1 | culture |  | MIC99 |  | Cryptococcus neoformans | ATCC 28957 |  |  | 8 µg/mL
COc1ccc(OC)c(-c2cncc(N3CCN(c4ccc(OC)c(OC)c4)CC3)n2)c1 | target | UL97 kinase | inhibition |  | Cytomegalovirus |  | 10 µM |  | >15%
Cc1cc(-c2ccc(N=Nc3c(N)c(S(=O)(=O)O)cc4cc(S(=O)(=O)O)ccc34)c(C)c2)ccc1N=Nc1c(N)ccc2cc(S(=O)(=O)O)ccc12 | culture |  | inhibition | cytopathic effect | Adenovirus | TYPE 3 | 5 µg/mL | Human amnion AV3 cells | 0%
c1ccc(Oc2ccc(-c3cncc(N4CCN(c5ccccn5)CC4)n3)cc2)cc1 | target | UL97 kinase | inhibition |  | Cytomegalovirus |  | 10 µM |  | >15%
O=C(Nc1cc(S(=O)(=O)[O-])cc2cc(S(=O)(=O)[O-])ccc12)c1ccccc1 | culture |  | inhibition | cytopathic effect | Herpes simplex virus |  | 10 µg/mL | Human conjunctiva cells | 0%
Clc1cccc(N2CCN(c3cncc(-c4ccc5ccccc5c4)n3)CC2)c1 | target | UL97 kinase | inhibition |  | Cytomegalovirus |  | 10 µM |  | >15%
C=CCc1ccc(O)c(OC)c1 | culture |  | MIC90 | turbidity | Candida parapsilosis | 2918 |  |  | 485 µg/mL
O=S(=O)([O-])c1ccc(NS(=O)(=O)c2ccccc2)c2c(S(=O)(=O)[O-])cccc12 | culture |  | inhibition | cytopathic effect | Herpes simplex virus |  | 5 µg/mL | Human amnion AV3 cells | 0%
Oc1ccccc1N=Cc1ccc2c(c1)OCO2 | culture |  | MIC99 |  | Cryptococcus neoformans | WP |  |  | 5.7 µg/mL
O=S(=O)([O-])c1ccc2c(NS(=O)(=O)c3ccccc3)cc(S(=O)(=O)[O-])cc2c1 | culture |  | inhibition | cytopathic effect | Adenovirus | TYPE 3 | 50 µg/mL | Human amnion AV3 cells | 0%
Oc1cccc(C=Nc2ccccc2O)c1 | culture |  | MIC99 |  | Cryptococcus gattii | L24/01 |  |  | 5.7 µg/mL
O=C(Nc1ccc(S(=O)(=O)[O-])c2cccc(S(=O)(=O)[O-])c12)c1ccccc1 | culture |  | inhibition | cytopathic effect | Adenovirus | TYPE 3 | 50 µg/mL | Human embryonic lung cells | 30%
Oc1ccccc1C=Nc1ccccc1O | culture |  | MIC99 |  | Cryptococcus gattii | 135L/03 |  |  | 11.3 µg/mL

Repeating the first 4 entries:

smiles	kind	target	endpoint	read by	species	strain or isolate	dose	cell line	value
O=[N+]([O-])c1ccc(C=Nc2ccccc2O)cc1	culture		MIC	broth dilution	Cryptococcus neoformans	LMM 820			16 µg/mL
Nc1cccc(S(=O)(=O)O)c1	culture		inhibition	cytopathic effect	Herpes simplex virus		10 µg/mL	Human amnion AV3 cells	17%
CSc1ccc(-c2cncc(N3CCN(c4ccc(C(F)(F)F)cc4)CC3)n2)cc1	target	UL97 kinase	IC50		Cytomegalovirus				<10 µM
Cc1nc(NCCCCNc2ccnc3cc(Cl)ccc23)nc(-c2ccccc2)c1C(=O)OC(C)C	culture		MIC99		Cryptococcus gattii	547/OTTI-97-PI-10			16 µg/mL